Pooled drug test results. Numbers come from NIAID ChemDB, via PubChem.

All rows: enzyme or target tests; organism: HIV-1; protein: Reverse transcriptase

Conditions beyond the fields shown may differ between rows. Blank or dashed fields: not listed here. ICn is the concentration giving n% inhibition.

SMILES	read-out	strain or isolate	read by	changes	value
O=C(CC1(O)C(=O)Nc2ccccc21)c1cccc(Br)c1	IC50		RT activity / absorbance		>100 µM
CCOc1ccccc1N1CCN(C(=O)c2cc3ccccc3[nH]2)CC1	IC50	IIIB	RT activity		2 µM
CCC1(c2ccc(COc3ccccc3Cl)cc2)Oc2ccccc2-n2cccc2C1=O	IC50		nucleotide incorporation / radiometric	RT-L100I	1.4 µM
COC(=O)C1(O)C[C@@H](OC(=O)/C=C/c2ccc(O)c(O)c2)C(O)[C@H](OC(=O)/C=C/c2ccc(O)c(O)c2)C1	IC50		RT activity / absorbance		250 µM
Nc1ccn([C@H]2CC[C@@H](COP(=O)(O)OP(=O)(O)OP(=O)(O)O)O2)c(=O)n1	Ki		nucleotide incorporation / radiometric	RT-M184V	1.8 µM
CCC1(c2cccc(I)c2)Oc2ccccc2-n2cccc2C1=O	IC50	WT	nucleotide incorporation / radiometric		0.05 µM
Cc1cn([C@H]2C=C[C@@H](COP(=O)(O)OP(=O)(O)OP(=O)(O)O)O2)c(=O)[nH]c1=O	Ki		nucleotide incorporation / radiometric		0.28 µM
Nc1ncnc2c1ncn2[C@H]1CC[C@@H](CO)O1	IC50				>1000 µM
Nc1ncnc2c1ncn2[C@@H]1O[C@H](COP(=O)(O)OP(=O)(O)OP(=O)(O)O)C[C@@H]1F	Ki		nucleotide incorporation / radiometric	RT-K65R	29 µM
CCOc1ccccc1N1CCN(C(=O)c2cc3cc4c(cc3[nH]2)OCO4)CC1	IC50	IIIB			5.6 µM
COc1cc(O)c2c(=O)cc(-c3ccc(O)cc3)oc2c1	IC50		RT activity / absorbance		1087 µM
Cc1cc(C)c(-n2nnnc2SCC(=O)Nc2ccc(Cl)cc2[N+](=O)[O-])c(C)c1	IC50			RT-K103N	0.012 µM
CCC1(c2cccc(N)c2)Oc2ccccc2-n2cccc2C1=O	IC50	WT	nucleotide incorporation / radiometric		0.3 µM
C=C(C)[C@@H]1CC=C2C(=CC[C@]3(C)[C@@H]([C@@H](CCC=C(C)C)C(=O)O)[C@H](O)C[C@@]23C)[C@@]1(C)CCC(=O)O	IC50		nucleotide incorporation		>45 µM
CC(C)c1c(CO)cn(Cc2ccncc2)c1Sc1cc(Cl)cc(Cl)c1	IC50		RT activity		0.2 µM
Cc1csc(NC(=S)NC[C@H](C)c2ccccc2)n1	IC50		nucleotide incorporation		5.1 µM
Nc1ncnc2c1ncn2[C@H]1CC[C@@H](COP(=O)(O)OP(=O)(O)OP(=O)(O)O)O1	IC50				0.6 µM
CC(C)Nc1cccnc1N1CCN(C(=O)c2cc3cc4c(cc3[nH]2)OCO4)CC1	IC50	IIIB		RT-P236L	3.3 µM
Nc1c(S(=O)(=O)O)cc2c3c(cc(S(=O)(=O)O)cc13)C(=O)N(NC(=O)N/N=C/c1ccc(-c3ccc(/C=N/NC(=O)NN4C(=O)c5cc(S(=O)(=O)O)cc6c(N)c(S(=O)(=O)O)cc(c56)C4=O)cc3)cc1)C2=O	IC50		nucleotide incorporation / radiometric		0.04 µM
C[C@H]1[C@H](C)CC[C@]2(CO)CC[C@]3(C)C(=CC[C@@H]4[C@@]5(C)CC[C@H](O)C(C)(C)[C@@H]5CC[C@]43C)[C@H]12	IC50		nucleotide incorporation		9.5 µM
Nc1ccn([C@H]2CC[C@@H](COP(=O)(O)OP(=O)(O)OP(=O)(O)O)O2)c(=O)n1	IC50	HXB2	ELISA		4.8 µM
O=C(/C=C/c1ccc(O)c(O)c1)O[C@@H]1C[C@](OC(=O)/C=C/c2ccc(O)c(O)c2)(C(=O)O)C[C@@H](O)[C@H]1O	IC50	LAI			>97 µM
CC(C)c1c(CO)cn(Cc2ccncc2)c1Sc1ccccc1	IC50		RT activity		0.8 µM
C[C@@H](CNC(=S)Nc1nc2ccccc2s1)c1ccccc1	IC50		nucleotide incorporation		>100 µM
O=C(CC1(O)C(=O)Nc2ccccc21)c1ccc(F)cc1	IC50		RT activity / absorbance		82.61 µM
Nc1ccn([C@@H]2CS[C@H](COP(=O)(O)OP(=O)(O)OP(=O)(O)O)O2)c(=O)n1	Ki		nucleotide incorporation / radiometric	RT-M184V	93 µM
Cc1cc(C)c(-n2nnnc2SCC(=O)Nc2ccccc2Cl)c(C)c1	IC50			RT-K103N	0.015 µM
C=C1CC[C@@H]2[C@H]([C@H]3[C@H]1CC[C@]3(C)[C@@H](CC(C)C)c1c(O)c(C=O)c(O)c(C=O)c1O)C2(C)C	IC50		RT activity		8.4 µM
C=C(CC[C@@H](C)[C@H]1CC[C@@]2(C)C3CC[C@H]4C(C)(C)[C@@H](OC(=O)/C=C/c5ccc(O)c(OC)c5)CC[C@@]45C[C@@]35CC[C@]12C)C(C)C	IC50		nucleotide incorporation		1.9 µM
C=C(Cn1cnc2c(=O)[nH]c(N)nc21)OCP(=O)(O)OP(=O)(O)OP(=O)(O)O	IC50				1.9 µM
O=C(/C=C/c1ccc(O)c(O)c1)O[C@H]1[C@H](O)C[C@](O)(C(=O)O)C[C@H]1OC(=O)/C=C/c1ccc(O)c(O)c1	IC50		RT activity / absorbance		352 µM
CCNc1cccnc1N1CCN(C(=O)c2cc3cc4c(cc3[nH]2)OCO4)CC1	IC50	IIIB		RT-Y181C	>50 µM
CC(C)=CCC/C(C)=C/CC/C(C)=C/CC/C=C(\C)CC[C@@H]1C(C)=CC[C@H](O)C1(C)C	IC50		nucleotide incorporation		>47 µM
CC(C)=CCN1Cc2cccc3[nH]c(=S)n(c23)C[C@@H]1C	Ki			RT-H208Y	0.77 µM
Cc1cccc(C(=O)CC2(O)C(=O)Nc3ccc(Br)cc32)c1	IC50		RT activity / absorbance		1.38 µM
COc1ccc2nc(NC(=S)N[C@H](C)c3ccccc3)sc2c1	IC50		nucleotide incorporation		>100 µM
O=C(CC1(O)C(=O)Nc2ccc(Br)cc21)c1ccc(F)cc1	IC50		RT activity / absorbance		15.54 µM
O=C(CSc1nnnn1-c1c(Cl)cccc1Cl)Nc1ccccc1[N+](=O)[O-]	IC50			RT-K103N	0.04 µM
CC(C)=CCC[C@@H](C)C1CC[C@@]2(C)[C@@H]3CC=C4[C@@H](CC[C@H](O)C4(C)C)[C@]3(C)CC[C@]12C	IC50		nucleotide incorporation		28 µM
NNC(=O)NN1C(=O)c2cc(S(=O)(=O)[O-])cc3c(N)c(S(=O)(=O)[O-])cc(c23)C1=O	IC50		nucleotide incorporation / radiometric		>100 µM
CC(C)=CCC[C@@H](C)C1=CC[C@@]2(C)C3CC[C@H]4C(C)(C)[C@@H](O)CC[C@@]45C[C@@]35CC[C@]12C	IC50		nucleotide incorporation		4.2 µM
C[C@H](CNC(=S)Nc1ccc(Br)cn1)c1ccccc1	IC50		nucleotide incorporation		1.9 µM
COc1ccc(C(=O)CC2(O)C(=O)Nc3ccc(Cl)cc32)cc1OC	IC50		RT activity / absorbance		73.08 µM
Cc1cc(C)c(-n2nnnc2SCC(=O)Nc2ccc(S(N)(=O)=O)cc2Cl)c(C)c1	IC50			RT-K103N	0.012 µM
O=C(/C=C/c1ccc(O)c(O)c1)O[C@@H]1[C@H](O)C[C@@](O)(C(=O)O)C[C@H]1OC(=O)/C=C/c1ccc(O)c(O)c1	IC50		RT activity / absorbance		240 µM
O=C1OC[C@H]2[C@H](c3ccc(O)c(O)c3)c3cc(O)c(O)cc3C[C@H]12	IC50	HXB2	RT activity		200 µM
Cc1cc(C)c(-n2nnnc2SCC(=O)Nc2ccc(C(N)=O)cc2C)c(C)c1	IC50				0.055 µM
O=C(CC1(O)C(=O)Nc2ccc(Br)cc21)c1ccccc1Cl	IC50		RT activity / absorbance		2.03 µM
CCC1(c2ccc(CCc3ccccc3)cc2)Oc2ccccc2-n2cccc2C1=O	IC50		nucleotide incorporation / radiometric	RT-K103N	>10 µM
Nc1nc2c(ncn2CCOCP(=O)(O)O)c(=O)[nH]1	IC50				>100 µM
CCOc1cccc(C2(CC)Oc3ccccc3-n3cccc3C2=O)c1	IC50		nucleotide incorporation / radiometric	RT-V106A	4.8 µM
CCOC(=O)Cc1csc(NC(=S)NC[C@H](C)c2ccccc2)n1	IC50		nucleotide incorporation		>100 µM
CC(C)CC(c1c(O)c(C=O)c(O)c(C=O)c1O)C1(C)CCC2C1=CC(C(C)(C)O)CCC2C	IC50		RT activity		12 µM
O=C(CC1(O)C(=O)Nc2ccccc21)c1ccccc1Cl	IC50		RT activity / absorbance		69.68 µM
COc1ccc(OC)c(C/C=C/c2cc(O)c(O)c(O)c2)c1	IC50				>100 µM
Nc1nc2c(ncn2[C@H]2CC[C@@H](CO)O2)c(=O)[nH]1	IC50				>1000 µM
O=C(CC1(O)C(=O)Nc2ccc(Cl)cc21)c1ccc(Cl)c(Cl)c1	IC50		RT activity / absorbance		68.86 µM
CCC1(c2ccc(CNc3cccc(F)c3)cc2)Oc2ccccc2-n2cccc2C1=O	IC50		nucleotide incorporation / radiometric	RT-Y181I	>10 µM
C[C@@H](CNC(=S)Nc1ccccn1)c1ccccc1	IC50		nucleotide incorporation		8.4 µM
CC(C)=CCN1Cc2cccc3[nH]c(=S)n(c23)C[C@@H]1C	IC50		nucleotide incorporation		6 µM
Nc1ncnc2c1ncn2CCOCP(=O)(O)O	IC50				>100 µM